Data published in ChEMBL document CHEMBL4007399, “Discovery and Synthesis of a Phosphoramidate Prodrug of a Pyrrolo[2,1-f][triazin-4-amino] Adenine C-Nucleoside (GS-5734) for the Treatment of Ebola and Emerging Viruses” (J Med Chem, 2017).

Test system: PBMC
Assay: Half life in rhesus monkey PBMC assessed as ((2R,3S,4R,5R)-5-(4-aminopyrrolo[1,2-f][1,2,4]triazin-7-yl)-5-cyano-3,4-dihydroxytetrahydrofuran-2-yl)methyl tetrahydrogen triphosphate levels at 10 mg/kg, iv administered as single bolus
Format: ADME, organism-based, Macaca mulatta
Settings: in vivo

## CCC(CC)COC(=O)[C@H](C)N[P@](=O)(OC[C@H]1O[C@@](C#N)(c2ccc3c(N)ncnn23)[C@H](O)[C@@H]1O)Oc1ccccc1
  t1/2: 14 h
